The results in this text go back to US20250382354A1 (INSTITUTE FOR RESEARCH IN BIOMEDICINE IRB, published 2025).

Read-outs that look alike come from different tables or passages of the source.

Test [1] concerns the target MERS S ectodomain (MERS).
Test [2] has as its target CRCoV-240/05 FP peptide (CRCoV-240/05).
Test [3] deals with MERS S ectodomain (MERS). The experiment in a line: ELISA on coated S. On the technique in general: In an ELISA, binding on a coated surface is turned into a signal by an enzyme label.
The target of test [4] is T1, CRCoV-240/05 FP peptide (CRCoV-240/05).
T1 construct: domain: FP peptide
Briefly: peptide ELISA.

Test [5] has as its target C-terminally truncated SARS-CoV-2 S protein, Alpha (SARS-CoV-2 Alpha). The experiment in a line: cell-based or functional assay.
For test [6], the target named is C-terminally truncated SARS-CoV-2 S protein, Omicron BA.2.75.2 (SARS-CoV-2 Omicron BA.2.75.2). Briefly: cell-based or functional assay.
Test [7] has as its target C-terminally truncated SARS-CoV-2 S protein, Gamma (SARS-CoV-2 Gamma). The experiment in a line: cell-based or functional assay.
Test [8] concerns the target C-terminally truncated SARS-CoV-2 S protein, Delta (SARS-CoV-2 Delta). Briefly: cell-based or functional assay.
For test [9], the target named is C-terminally truncated SARS-CoV-2 S protein, Omicron BA.1 (SARS-CoV-2 Omicron BA.1). The experiment in a line: cell-based or functional assay.
Test [10] concerns the target C-terminally truncated SARS-CoV-2 S protein, Beta (SARS-CoV-2 Beta). The experiment in a line: cell-based or functional assay.
For test [11], the target named is C-terminally truncated SARS-CoV-2 S protein, Omicron BA.2.75 (SARS-CoV-2 Omicron BA.2.75). Briefly: cell-based or functional assay.
The target of test [12] is C-terminally truncated SARS-CoV-2 S protein, Omicron BA.2 (SARS-CoV-2 Omicron BA.2). The experiment in a line: cell-based or functional assay.
The target of test [13] is T2, CRCoV-240/05 HR2 peptide (CRCoV-240/05).
T2 construct: domain: HR2 peptide
Briefly: peptide ELISA.

Test [14] addresses SARS-CoV-2 S of the Delta pseudovirus (SARS-CoV-2 Delta). Briefly: cell-based or functional assay.
The target of test [15] is SARS-CoV-2 S of the Omicron BA.2.75 pseudovirus (SARS-CoV-2 Omicron BA.2.75). The experiment in a line: cell-based or functional assay.
The target in test [16] is SARS-CoV-2 S of the Omicron BA.2 pseudovirus (SARS-CoV-2 Omicron BA.2). Briefly: cell-based or functional assay.
Test [17] concerns the target SARS-CoV-2 S of the Omicron BA.1 pseudovirus (SARS-CoV-2 Omicron BA.1). The experiment in a line: cell-based or functional assay.
Test [18] addresses SARS-CoV-2 S of the Omicron BA.4/BA.5 pseudovirus (SARS-CoV-2 Omicron BA.4/BA.5). The experiment in a line: cell-based or functional assay.
In test [19] the target is SARS-CoV-2 S of the Alpha pseudovirus (SARS-CoV-2 Alpha). The experiment in a line: cell-based or functional assay.
Test [20] deals with SARS-CoV-2 S of the Beta pseudovirus (SARS-CoV-2 Beta). Briefly: cell-based or functional assay.
In test [21] the target is SARS-CoV-2 S of the Gamma pseudovirus (SARS-CoV-2 Gamma). The experiment in a line: cell-based or functional assay.
The target of test [22] is SARS-CoV-2 S of the Omicron BA.2.75.2 pseudovirus (SARS-CoV-2 Omicron BA.2.75.2). Briefly: cell-based or functional assay.

B1: fp.011 (antibody, V domains shown)
VH: EVQLLESGGGLVQPGGSLRLSCAGSGFTFNNYAMTWVRQAPGRGLEWVSAISGSGGSSHYADSVKGRFTITRDNSKNTLYLQMNSLRAEDTAVYYCAFIDYYSGWSYYYGLDVWGQGTTVTVSS
VL: EIVLTQSPATLSLSPGERATLSCRASQGVRTYVAWYQQKPGQAPRLLIYDASNRATGIPARFSGSGSGTDFTLTISSLEPEDFAVYYCQQRYNWPLCSFGQGTKLEIK
With B1, the EC50 (in general, the concentration at which the effect is half-maximal) in test [1] came to 0.133 µg/mL; in test [2], 0.0214 µg/mL.

B2: fp.006 (antibody, V domains shown)
VH: VQLVESGGGVVQPGGSLRLSCAASGFNFNNYALHWVRQAPGKGLEWVAIISYEARNKKYGVSVMGRFSISRDNSKSIMYLEMNSLRVEDTGVYYCARDLFLSDYDRSGYDPTRGGFDHWGQGTLVTVSS
VL: EIVMTQSPATLSVSPGERATLSCRASQSVSSSLAWYQHRFGQAPRLLISGASTRATGIPGRFSGSGSGTEFTLTISSLQSEDVAVYYCQQYGDWPLVTFGGGTKVEIK
For B2, the concentration for a half-maximal effect (EC50) worked out at 0.0412 µg/mL in [3] and 0.0149 µg/mL in test [4]. In test [5], the “Alpha Pseudovirus IC50” value came out at 15.6 µg/mL. Moreover, the “Omicron BA.2.75.2 Pseudovirus IC50” value in test [6] stood at 30.3 µg/mL. In addition, the “Gamma Pseudovirus IC50” value in test [7] was 0.408 µg/mL. For the same molecule, the “Delta Pseudovirus IC50” value in test [8] was determined as 42 µg/mL. In addition, the “Omicron BA.1 Pseudovirus IC50” value in test [9] is 19.1 µg/mL. Besides, the “Beta Pseudovirus IC50” value in [10] was 29.6 µg/mL. The “Omicron BA.2.75 Pseudovirus IC50” value in test [11] turned out to be 80.8 µg/mL.

B3: fp.007 (antibody, V domains shown)
VH: EVQLVESGGGLVKPGGSLRLSCAGTGFIFSDAWMTWVRQAPGKGLEWVGRIKSKADGGTTDYAAPVKGRFTISRDDSKNTLYLEINSLKTEDTAVYYCTTGRSRYCIGAVCYYFDHWGQGTLVTVSS
VL: not shown
On to B3, for which the “Alpha Pseudovirus IC50” value in test [5] was 5.85 µg/mL. In addition, in [6], the “Omicron BA.2.75.2 Pseudovirus IC50” value turned out to be 14.5 µg/mL. Further, in test [7], the “Gamma Pseudovirus IC50” value was determined as 0.801 µg/mL. For the same molecule, the “Delta Pseudovirus IC50” value in test [8] came out at 3.23 µg/mL. For the same molecule, the “Omicron BA.1 Pseudovirus IC50” value in test [9] came to 9.23 µg/mL. Also, the “Beta Pseudovirus IC50” value in [10] stood at 42.9 µg/mL. For the same molecule, the “Omicron BA.2.75 Pseudovirus IC50” value in test [11] stood at 12.7 µg/mL. Also, the “Omicron BA.2 Pseudovirus IC50” value in [12] was 1.89 µg/mL.

B4: hr2.016 (antibody, V domains shown)
VH: EVQLLESGGGLVQPGGSLRLSCAASGFMFSKYAMTWVRQTPGKGLEWVSVISGGGGSTYYADSVKGRFTISRDNSKNTLYLQMNSLRAEDTAVYYCAKLLVVFVIDYWGQGALVTVSS
VL: EIVLTQSPGTLSLSPGERATLFCRASQSVSSNLAWYQQKPGRAPRLLISGASSRATGIPDRFSGSGSGTDFTLTISRLEPEDFAVYYCQQYGSSPPTFGQGTKVEIK
As for B4, the 50% effective concentration (EC50) was 0.0694 µg/mL in test [3] and 0.00513 µg/mL in test [13]. In addition, the “Alpha Pseudovirus IC50” value in test [5] was 0.307 µg/mL. For the same molecule, the “Omicron BA.2.75.2 Pseudovirus IC50” value in test [6] was 0.867 µg/mL. Further, the “Gamma Pseudovirus IC50” value in [7] was 0.000599 µg/mL. Moreover, the “Delta Pseudovirus IC50” value in [8] turned out to be 0.384 µg/mL. Moreover, the “Omicron BA.1 Pseudovirus IC50” value in [9] amounted to 0.454 µg/mL. Further, the “Beta Pseudovirus IC50” value in [10] is 0.484 µg/mL. Further, the “Omicron BA.2.75 Pseudovirus IC50” value in [11] came to 1.08 µg/mL. The “Omicron BA.2 Pseudovirus IC50” value in test [12] was 0.559 µg/mL.

B5: fp.009 (antibody, V domains shown)
VH: VQLVESGGGVVQPGTSLTLSCEASGFTFSNYAMHWVRQAPGKGLEWVAIISFDTRNKKFAGSVQGRFSISRDNAKNSIYLQMNNLRPEDTGIYYCARDVFLSDYDSRGFDRTRGGFDYWGQGTLVTVSS
VL: EIVMTQSPATLSVSPGEKATLSCRASESVGSSLAWYQQKLGQAPRLLIYGASTRATGIPARFSGSGSGAEFTLTISSLQSEDFAIYYCQQYGDWPLLTFGGGTKVEIK
For the molecule B5, the EC50 was determined as 0.0515 µg/mL in test [1] and 0.026 µg/mL in test [2].

B6: hr2.023 (antibody, V domains shown)
VH: QVQLVQSGAEVKKPGASVKVSCRASENIFSDSYLHWVRQAPGQGLEWMGIITPSGDKTFYAQQFQGRLTMTRDTPTNTLHMDLRGLTSADTAIYYCARQATKGGWDYWGQGTLVTVSS
VL: EIVLTQSPGTLSLSPGESATLSCRASQSVTRNYLAWYQQQPGQAPRLLIYGASNRATGVPDRFSGSGSGTDFTLTISRLEPEDFAVYYCQQYGSSPPTFIFGPGTKVDIK
As to B6, the figures for the EC50 in [3] and in test [13] were 0.0516 µg/mL and 0.0165 µg/mL, respectively. For the same molecule, the “Alpha Pseudovirus IC50” value in test [5] amounted to 4.71 µg/mL. In [6], the “Omicron BA.2.75.2 Pseudovirus IC50” value was determined as 4.24 µg/mL. For the same molecule, in test [7], the “Gamma Pseudovirus IC50” value turned out to be 0.0209 µg/mL. Further, the “Delta Pseudovirus IC50” value in test [8] turned out to be 1.69 µg/mL. Also, the “Omicron BA.1 Pseudovirus IC50” value in [9] was 2.03 µg/mL. The “Beta Pseudovirus IC50” value in [10] worked out at 5.57 µg/mL. For the same molecule, the “Omicron BA.2.75 Pseudovirus IC50” value in test [11] was 7.06 µg/mL. Also, the “Omicron BA.2 Pseudovirus IC50” value in test [12] is 3.6 µg/mL.

B7: sd1.040 (antibody, V domains shown)
VH: QVQLVQSGAEVKKPGASVKVSCKASGYTFTSFYIHWVRQAPGQGLEWMGIIDPSGGSTSYPQKFQGRVTMTRDTSTSTVYMDLSSLRSEDTAVYYCTRDGSAGDNSWFDPWGQGTLVTVSS
VL: DIVMTQSPDSLAVSLGERATINCKSSRNVLYSSNNKNYLAWYQQKPGQPPKLLIYWASARESGVPDRFSGSGSGTDFTLTISSLQAEDVAVYYCQQYYNTPYTFGQGTKLEIK
For B7, in test [14], the “Delta Pseudovirus IC50” value was 3.72 µg/mL. In [15], the “Omicron BA.2.75 Pseudovirus IC50” value turned out to be 4.02 µg/mL. In test [16], the “Omicron BA.2 Pseudovirus IC50” value turned out to be 1.44 µg/mL. Moreover, the “Omicron BA.1 Pseudovirus IC50” value in test [17] turned out to be 1 µg/mL. Further, in test [18], the “Omicron BA.4/BA.5 Pseudovirus IC50” value was 1.36 µg/mL. The “Alpha Pseudovirus IC50” value in [19] stood at 5.84 µg/mL. Besides, the “Beta Pseudovirus IC50” value in test [20] is 2.35 µg/mL. Besides, the “Gamma Pseudovirus IC50” value in test [21] is 0.0664 µg/mL. Besides, in test [22], the “Omicron BA.2.75.2 Pseudovirus IC50” value is 4.49 µg/mL.
